Experimental data reported in patent US20080201790A1 (published 2008).

Target: T1, MEKKCOOH (protein encoded by p-MEKKCOOH, expressed in COS cells) (mouse, UniProt P53349 1174-1493)
T1 construct: also called MEKK1COOH
T1 sequence: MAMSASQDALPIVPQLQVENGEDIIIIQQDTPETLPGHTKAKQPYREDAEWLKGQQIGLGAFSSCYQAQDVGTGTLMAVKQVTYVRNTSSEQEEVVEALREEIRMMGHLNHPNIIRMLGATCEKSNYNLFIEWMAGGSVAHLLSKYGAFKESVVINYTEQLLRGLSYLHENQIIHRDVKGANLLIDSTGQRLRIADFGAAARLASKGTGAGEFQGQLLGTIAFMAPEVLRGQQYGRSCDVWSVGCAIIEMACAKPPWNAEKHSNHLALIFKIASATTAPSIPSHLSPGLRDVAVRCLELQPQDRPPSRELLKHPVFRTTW
Experiment: GST agarose pull-down from COS cell lysate, anti-MEKK immunoblot

B1: GST agarose (control) (other, UniProt P08515 1-218, looked up)
chain: MSPILGYWKIKGLVQPTRLLLEYLEEKYEEHLYERDEGDKWRNKKFELGLEFPNLPYYIDGDVKLTQSMAIIRYIADKHNMLGGCPKERAEISMLEGAVLDIRYGVSRIAYSKDFETLKVDFLSKLPEMLKMFEDRLCHKTYLNGDHVTHPDFMLYDALDVVLYMDPMCLDAFPKLVCFKKRIEAIPQIDKYLKSSKYIAWPLQGWQATFGGGDHPPK
notes: Negative control for the Ras pull-downs
binding result: no binding
